Measured values from several laboratories, pooled; numbers as filed in NIAID ChemDB.

Common to all: whole-cell or culture tests

Inhibition is in % at the dose shown (toxicity tests: loss of growth or viability). Two numbers with a dash give a range or band. An empty or dashed field is not shown. ECn is the concentration giving n% inhibition of infection, replication or growth. A number after MIC or MFC names an inhibition level or a share of isolates. Lines come from different laboratories, so protocols vary.

SMILES | species | strain | cells | read by | conditions | read-out | dose | result
Cc1nc(NC(=O)NCCc2ccccc2)sc1C | HIV-2 |  | MT-4 | cytopathic effect / XTT |  | inhibition | 100 µg/mL | 85%
CN[C@H]1CC[C@@H](c2ccc(Cl)c(Cl)c2)c2ccccc21 | Cryptococcus neoformans | XL1495 |  | broth dilution |  | MIC90 |  | 4 µg/mL
CC(C)(O)c1cn(-c2ccc3ccccc3c2)nn1 | Candida albicans | URM 4609 |  | broth dilution |  | inhibition | 2048 µg/mL | 0%
Cc1cc(-c2ccc(N=Nc3c(N)c(S(=O)(=O)O)cc4cc(S(=O)(=O)O)ccc34)c(C)c2)ccc1N=Nc1c(N)ccc2cc(S(=O)(=O)O)ccc12 | Adenovirus | TYPE 3 | Human amnion AV3 cells | cytopathic effect |  | inhibition | 5 µg/mL | 0%
CCn1nc(CC(=O)NN=C(C)C)nc1C | Reovirus | TYPE 1 |  |  |  | MIC |  | >80 µg/mL
N#Cc1ccc(CSc2ncnc3c2ncn3[C@@H]2O[C@H](CO)[C@@H](O)[C@H]2O)cc1 | Toxoplasma gondii | RH (WILD TYPE) |  |  |  | inhibition | 10 µM | 54.8%
O=C1[C@@H](Cc2ccccc2)NC(=S)N1c1ccccc1 | HIV-2 |  | MT-4 | RT activity |  | inhibition | 10 µg/mL | 1%
O=C(NCc1ccc(Cl)cc1)c1c[nH]c2ccc(CCCO)cc2c1=O | Varicella zoster virus | DIE |  | plaque count |  | EC50 |  | 0.1 µM
Nc1nc2c(ncn2COCCO)c(=O)[nH]1 | Varicella zoster virus | KANNO | HELF | plaque count |  | inhibition | 1 µg/mL | 82%
CC[C@H]1OC(=O)[C@H](C)[C@@H](OC2C[C@@](C)(OC)[C@@H](O)[C@H](C)O2)[C@H](C)[C@@H](OC2O[C@H](C)C[C@H](N(C)C)[C@H]2O)[C@](C)(OC2C[C@H](N)[C@H](O)[C@H](C)O2)C[C@@H](C)C(=O)[C@H](C)[C@@H](O)[C@]1(C)O | Plasmodium falciparum | 3D7 | RBC | fluorescence | 120 h | EC50 |  | 15.2 µM
Nc1ccc2c(O)cc(S(=O)(=O)[O-])cc2c1S(=O)(=O)[O-] | Herpes simplex virus |  | Human amnion AV3 cells | cytopathic effect |  | inhibition | 50 µg/mL | 0%
Cc1ccc(C)n1-c1ccc(C(=O)O)c(O)c1 | HIV-1 | 92US657 R5 CLADE B | PBMC + MT-2 | p24 |  | EC90 |  | 126.7 µM
NNC(=O)Cc1nc2n(n1)CCCCC2 | Reovirus | TYPE 1 |  |  |  | MIC |  | >16 µg/mL
O=c1oc2ccc(F)cc2c(=S)n1-c1ccc(C(F)(F)F)cc1 | Mycobacterium kansasii | My 235/80 |  |  | 21 d | MIC |  | 8 µM
CC(=O)N[C@H]1[C@H]([C@H](O)[C@H](O)CO)OC(C(=O)O)=C[C@@H]1N=C(N)N | Influenza A virus | H1N1 A/TEXAS/36/91 | MDCK |  |  | EC50 |  | 0.22 µM
CC(=O)c1ccc(CCCOc2c(C)cc(-c3noc(C(F)(F)F)n3)cc2C)nn1 | Enterovirus |  | HeLa | cytopathic effect |  | EC50 |  | 0.033–0.659 µg/mL
Nc1nc2c(ncn2COCCO)c(=O)[nH]1 | Guinea pig herpesvirus | Lymphotropic | GPE | virus yield |  | EC50 |  | <354 µg/mL
CCCCCCCCCCCCOC(=O)[C@]1(O)C[C@@H](O)[C@@H](O)[C@H](OC(=O)/C=C/c2ccc(O)c(O)c2)C1 | Aspergillus westerdijkiae | CBS 112803 |  | absorbance |  | MIC80 |  | >1500 µg/mL
CO[C@H]1/C=C/O[C@@]2(C)Oc3c(C)c(O)c4c(O)c(c(/C=N/N5CCN(C6CCCC6)CC5)c(O)c4c3C2=O)NC(=O)/C(C)=C\C=C\[C@H](C)[C@H](O)[C@@H](C)[C@@H](O)[C@@H](C)[C@H](OC(C)=O)[C@@H]1C | Mycobacterium avium intracellulare | 21 strains |  |  |  | MIC90 |  | 2 µg/mL
C=CCc1ccc(O)c(OC)c1 | Candida albicans | 3143 |  | turbidity |  | MIC90 |  | 475 µg/mL
COc1ccc2oc(=S)n(-c3ccc(C)cc3)c(=S)c2c1 | Mycobacterium kansasii | 6509/96 |  |  | 21 d | MIC |  | 16 µM
O=S(=O)(O)c1ccc2ccc(S(=O)(=O)O)cc2c1 | Herpes simplex virus |  | Human amnion AV3 cells | cytopathic effect |  | inhibition | 10 µg/mL | 0%
C/C=C\[C@@H]1C[C@H](C(=O)O)N[C@H]1[C@@H](NC(C)=O)[C@](C)(CCC)OC | Influenza B virus | Isolate C29C | MDCK | plaque count |  | EC50 |  | <0.01 µg/mL
O=c1[nH]c(=O)n([C@@H]2O[C@H](CO)[C@@H](O)[C@@H]2O)cc1/C=C/Cl | Varicella zoster virus | HIRAI | HELF | plaque count |  | inhibition | 0.0001 µg/mL | 4%
C[C@@]1(F)[C@H](O)[C@@H](CO)O[C@H]1n1ccc(N)nc1=O | Bovine viral diarrhea virus |  | MDBK | replicon |  | EC90 |  | >100 µM
O=c1[nH]c(=O)n([C@H]2C[C@H](O)[C@@H](CO)O2)cc1/C=C/Br | Varicella zoster virus | Kawaguchi | HELF | plaque count |  | inhibition | 0.01 µg/mL | 95%
N#Cc1csc(NC(=O)NCCc2ccccc2)n1 | HIV-2 |  | MT-4 | cytopathic effect / XTT |  | inhibition | 100 µg/mL | 0%
Cc1cc(OCCCc2ccc(Cl)nn2)cc(C)c1-c1noc(C(F)(F)F)n1 | Enterovirus |  | HeLa | cytopathic effect |  | EC50 |  | 0.033–0.659 µg/mL
O=C(NCCc1ccccc1)Nc1cncc(Cl)n1 | HIV-2 |  | MT-4 | cytopathic effect / XTT |  | inhibition | 100 µg/mL | 26–100%
CCc1ccc(CCCOc2c(C)cc(-c3nnn(C)n3)cc2C)o1 | Enterovirus |  | HeLa | cytopathic effect |  | EC50 |  | 0.033–0.659 µg/mL
Cc1ccc(-n2cc(C(C)(C)O)nn2)cc1C | Candida parapsilosis | URM 4984 |  | broth dilution |  | inhibition | 2048 µg/mL | 0%
CCc1cn([C@@H]2O[C@H](CO)[C@@H](O)[C@@H]2O)c(=O)[nH]c1=O | Varicella zoster virus | OKA | HELF | plaque count |  | inhibition | 10 µg/mL | 0%
O=C(NCCc1ccccc1)Nc1nncs1 | HIV-2 |  | MT-4 | RT activity |  | inhibition | 10 µg/mL | 57%
CC[C@H]1OC(=O)[C@H](C)[C@@H](OC2C[C@@](C)(OC)[C@@H](O)[C@H](C)O2)[C@H](C)[C@@H](OC2O[C@H](C)C[C@H](N(C)C)[C@H]2O)[C@](C)(OC2C[C@@H](N(C)C)[C@@H](O)[C@H](C)O2)C[C@@H](C)CN(C)[C@H](C)[C@@H](O)[C@]1(C)O | Plasmodium falciparum | 3D7 | RBC | fluorescence | 120 h | EC50 |  | 0.16 µM
CN1C(=O)[C@@H](Cc2ccccc2)NC1=S | HIV-2 |  | MT-4 | RT activity |  | inhibition | 1 µg/mL | 1%
Cc1cc(OCCCc2ccc(C(C)F)nn2)ccc1-c1noc(C(F)F)n1 | Enterovirus |  | HeLa | cytopathic effect |  | EC50 |  | 0.033–0.659 µg/mL
NCS(=O)(=O)O | Adenovirus | TYPE 3 | Human amnion AV3 cells | cytopathic effect |  | inhibition | 5 µg/mL | 0%
O=c1oc2ccc(Cl)cc2c(=S)n1-c1ccc(C(F)(F)F)cc1 | Mycobacterium kansasii | My 235/80 |  |  | 14 d | MIC |  | 16 µM
Nc1c(S(=O)(=O)O)cc2cc(S(=O)(=O)O)cc(O)c2c1O | Adenovirus | TYPE 3 | Human embryonic lung cells | cytopathic effect |  | inhibition | 10 µg/mL | 60%
CCc1nc(CC(=O)NN=C(C)C)nn1CC | Sindbis virus |  |  |  |  | MIC |  | >80 µg/mL
CC(=O)c1ccc(CCCOc2ccc(-c3noc(C(F)F)n3)c(C)c2)nn1 | Enterovirus |  | HeLa | cytopathic effect |  | EC50 |  | 0.033–0.659 µg/mL
O=C(NCCc1ccccc1)Nc1nc2ccc(Cl)cc2s1 | HIV-2 |  | MT-4 | RT activity |  | inhibition | 0.1 µg/mL | 1%
CCO/N=C/c1ccc(OCCC2CCN(c3ccc(Cl)nn3)CC2)cc1 | Rhinovirus | 121564 (ICAM-1 receptor group 86) | KB | neutral red |  | EC50 |  | 0.021 µM
O=c1[nH]c(=O)n([C@H]2C[C@H](O)[C@@H](CO)O2)cc1Br | Murine polyoma virus |  | ME | hybridisation |  | inhibition | 12.68 µg/mL | 86.5%
Nc1ncnc2c1ncn2C[C@H](O)CO | Reovirus | TYPE 1 |  |  |  | MIC |  | 240 µg/mL
O=S(=O)([O-])c1ccc2c(NS(=O)(=O)c3ccccc3)cc(S(=O)(=O)[O-])cc2c1 | Adenovirus | TYPE 3 | Human amnion AV3 cells | cytopathic effect |  | inhibition | 10 µg/mL | 0%
CC(C)(O)c1cn(-c2ccccc2)nn1 | Candida parapsilosis | URM 4984 |  | broth dilution |  | inhibition | 2048 µg/mL | 0%
CCc1ccc(CCCOc2ccc(-c3noc(C(F)(F)F)n3)c(C)c2)nn1 | Enterovirus |  | HeLa | cytopathic effect |  | EC50 |  | 0.033–0.659 µg/mL
Cc1nc(Cc2n[nH]c(=S)n2-c2ccccc2)nn1C | Parainfluenza virus | TYPE 3 |  |  |  | MIC |  | >80 µg/mL
Cc1cc(OCCCc2ccc(C(F)F)nn2)cc(C)c1-c1noc(C(F)F)n1 | Enterovirus |  | HeLa | cytopathic effect |  | EC50 |  | 0.033–0.659 µg/mL
CC(C)(C)c1ccc(CSc2ncnc3c2ncn3[C@@H]2O[C@H](CO)[C@@H](O)[C@H]2O)cc1 | Toxoplasma gondii | RH adenosine kinase-deficient |  |  |  | inhibition | 25 µM | 0%
CO/N=C1\CN(c2nc3c(cc2F)c(=O)c(C(=O)O)cn3C2CC2)CC1CN | Escherichia coli | 13 strains |  |  |  | MIC50 |  | 0.031 µg/mL
CC(C)(O)c1cn(-c2ccc([N+](=O)[O-])cc2)nn1 | Candida parapsilosis | URM 4607 |  | broth dilution |  | inhibition | 2048 µg/mL | 0%
COc1ccc(-n2c(Cc3nc4n(n3)CCCC4)n[nH]c2=S)cc1 | Punta Toro virus |  |  |  |  | MIC |  | >400 µg/mL
Cc1ccc2oc(=O)n(-c3ccc(Cl)cc3)c(=S)c2c1 | Mycobacterium kansasii | 6509/96 |  |  | 21 d | MIC |  | 4 µM
CCCc1ccc(CCCOc2c(C)cc(-c3nnn(C)n3)cc2C)o1 | Enterovirus |  | HeLa | cytopathic effect |  | EC50 |  | 0.033–0.659 µg/mL
Cc1cn([C@@H]2O[C@H](CO)[C@@H](O)[C@@H]2O)c(=O)[nH]c1=O | Varicella zoster virus | OKA | HELF | plaque count |  | inhibition | 0.1 µg/mL | 16%